Experimental data as given in paper PMC5036131, “Fragment-based discovery of a new family of non-peptidic small-molecule cyclophilin inhibitors with potent antiviral activities” (Nature Communications, 2016).
Read-outs that look alike come from different tables or passages of the source.

How the values were obtained:
HIV-IIIb = test: Anti-HIV activity in MT4 cells; conditions: read-out: HIV-IIIb in MT4 cells EC50, 5 days
HCoV-229E = test: Anti-human coronavirus 229E activity in MRC5 cells; conditions: read-out: HCoV-229E EC50, 72 h, viral cytopathic effect
[1] = read-out: HCV genotype 1b replicon EC50, Huh7 cells, 3 days, HCV RNA

SMILES	EC50 (HCV genotype 1b replicon; [1])	EC50 (HCV genotype 1b replicon; read-out: EC50 HCV (WT) subgenomic replicon, wild-type genotype 1b replicon, comparison with mutated replicons (Table 3))	EC50 (HIV-IIIb)	EC50 (HCoV-229E)
O=C(NC(=O)c1c(Cl)cccc1Cl)NC1c2ccccc2-c2ccccc21	> 50 µM			
O=C(NC(=O)c1c(F)cccc1Cl)NC1c2ccccc2-c2ccccc21 [TMN-355, reference compound]	> 50 µM			
CSc1ccccc1C1CCCN1C(=O)C(CC(C)C)NC(=O)NCc1ccc(N)cc1 (stereo not drawn)	1.7 µM	2.9 µM	13 µM	27.6 µM
